The text below walks through data of patent US20230126310A1 (priority 2020, published 2023).

Where a name gives a salt, the structure may show the parent alone.

The test system of one data set is SARS-CoV-2.
Conditions: not given
Regarding `CC(C)(C)c1ccc(/C=C/C(=O)Nc2ccc3c(c2)OCCO3)cc1` [AMG-9810], the “SI: selectivity index (CC50/IC50)” value was 1.

On to `C/C(=N\NC(=S)N1CCC1)c1ccccn1` [NSC319726], for which the “SI: selectivity index (CC50/IC50)” value is given as 1.

For `C[CH2][Hg][S]c1ccccc1C(=O)[O-].[Na+]` [THIMEROSAL], the “SI: selectivity index (CC50/IC50)” value stood at 8.

Take `CC(C)(C)c1cc(/C=C(\C#N)C(N)=S)cc(C(C)(C)C)c1O` [Tyrphostin AG 879 (AG 879), Tyrphostin AG 879]: the “SI: selectivity index (CC50/IC50)” value is given as 7.

The same data set, now with this note: CC50/IC50.
Consider `FC(F)(F)Oc1ccc2nc(-c3ccc(OCCOCCOc4ccc(-c5nc6ccc(OC(F)(F)F)cc6[nH]5)nc4)cn3)[nH]c2c1` [AI-10-49], for which the “SI: selectivity index (CC50/IC50)” value worked out at 35.

On to `C=C(c1ccccc1OCc1cccc(Cl)c1)n1ccnc1` [Cloconazole HCl], for which the “SI: selectivity index (CC50/IC50)” value is on record as 2.

As for `CCCCC1(C2CCCC2)Cc2cc(OCCCC(=O)O)c(Cl)c(Cl)c2C1=O` (stereo not shown) [DCPIB], the “SI: selectivity index (CC50/IC50)” value is 2.

With `Cn1cc(-c2ccc3c(c2)CCN3C(=O)Cc2cccc(C(F)(F)F)c2)c2c(N)ncnc21` [GSK2606414], the “SI: selectivity index (CC50/IC50)” value is above 100.

Take `Cc1nn(C)c2nc(NNC(=O)Nc3cc(Cl)nc(Cl)c3)cc(C(C)C)c12` [JTE-013]: the “SI: selectivity index (CC50/IC50)” value is 3.

Consider `CCOC(=O)c1ncc2[nH]c3ccc(OCc4ccccc4)cc3c2c1COC.Cl` [ZK-93423], for which the “SI: selectivity index (CC50/IC50)” value was 1.
